Pooled drug test results. Numbers come from NIAID ChemDB, via PubChem.

Common to all: enzyme or target tests

Inhibition is in % at the dose shown (toxicity tests: loss of growth or viability). Conditions beyond the fields shown may differ between rows. ICn: concentration for n% inhibition. Blank or dashed fields: not listed here. Two numbers with a dash give a range or band. Fold resistance: result on the changed form divided by that on wild type.

| structure | read-out | target | agent | mutations | strain | read by | dose | result |
|---|---|---|---|---|---|---|---|---|
| O=C(/C=C/c1cccn1Cc1ccc(F)cc1)CC(=O)C(=O)O | IC50 | RNase H | HIV-1 | R448A |  | substrate cleavage / fluorescence |  | 19.3 µM |
| CCC(C)(C)NC(=O)[C@@H]1CCCN1C(=O)[C@@H](O)[C@H](Cc1ccccc1)NC(=O)[C@H](CC(N)=O)NC(=O)OCc1ccccc1 | inhibition | Protease | HIV-1 |  |  |  | 5 µM | 94.2% |
| CCN1c2ncc(CCOc3ccc(NC(=O)CCC(=O)O)c4ccccc34)cc2C(=O)N(C)c2cccnc21 | fold resistance | Reverse transcriptase | HIV-1 | RT-Y188L |  | nucleotide incorporation / radiometric |  | >10 |
| CN(C)CCCC(=O)NC(C)(C)C#Cc1ccc(NC(=O)CSc2nnnn2-c2ccc(C3CC3)cc2Cl)c(Cl)c1 | IC50 | Reverse transcriptase | HIV-1 |  | WT | PicoGreen / fluorescence |  | <1 µM |
| Nc1ccn([C@@H]2CS[C@H](COP(=O)(O)OP(=O)(O)OP(=O)(O)O)O2)c(=O)n1 | fold resistance | Reverse transcriptase | HIV | RT-D67N K70R T215Y K219Q |  | radiometric |  | 1.5 |
| CCN1c2ncc(CCOc3ccc(CC(=O)NN)c4ccccc34)cc2C(=O)N(C)c2cccnc21 | fold resistance | Reverse transcriptase | HIV-1 | RT-K103N Y181C |  | nucleotide incorporation / radiometric |  | 1 |
| CN1CCn2c(nc(C(=O)NCc3ccc(F)cc3)c(O)c2=O)C(NCc2ccccc2)C1 | IC50 | Integrase | HIV-1 |  |  | ELISA |  | <10 µM |
| O=C1c2c(O)c(=O)c(-c3nccs3)cn2CCN1Cc1cccc(Cl)c1 | IC50 | Integrase | HIV-1 |  |  | ELISA |  | <0.01 µM |
| CC[C@H](C)[C@H](NC(=O)[C@@H]1CCCN1C(=O)[C@@H](O)[C@H](Cc1ccccc1)NC(=O)[C@H](CC(N)=O)NC(=O)[C@H](Cc1ccccc1)NC(=O)[C@@H](N)CO)C(=O)N[C@H](C(N)=O)C(C)C | IC50 | Protease | HIV-1 |  |  |  |  | <5 µM |
| Cc1ccc(Cn2cccc2/C=C/C(=O)CC(=O)C(=O)O)c(C)c1 | IC50 | RNase H | HIV-1 | R557A |  | substrate cleavage / fluorescence |  | 58 µM |
| CC(C)(C)NC(=O)[C@H]1N(C(=O)[C@@H](O)[C@H](Cc2ccccc2)NC(=O)[C@H](CC(N)=O)NC(=O)OCc2ccccc2)CSC1(C)C | IC50 | Protease | HIV-1 |  |  |  |  | <0.05 µM |
| O=C(/C=C/c1cccn1Cc1ccccc1Cl)CC(=O)C(=O)O | IC50 | RNase H | HIV-1 | R448A |  | substrate cleavage / fluorescence |  | 20 µM |
| CCCC[C@H](NC(=O)[C@H](C)NC(=O)[C@H](CCC(=O)O)NC[C@H](Cc1ccccc1)NC(=O)[C@H](CC(C)C)NC(=O)[C@@H](NC(=O)[C@@H](N)CCCN=C(N)N)C(C)C)C(N)=O | IC50 | Protease | HIV | PR-V82S |  | HPLC |  | >0.075 µM |
| CC(C)(C#Cc1ccc(NC(=O)CSc2nnnn2-c2ccc(C(C)(C)C)cc2Cl)c(Cl)c1)OCC(N)=O | IC50 | Reverse transcriptase | HIV-1 | RT-K103 Y181C |  | PicoGreen / fluorescence |  | <1 µM |
| CCCc1cn(Cc2ccc(Cl)c(Cl)c2)c(=O)c2c(O)c(=O)ccn12 | IC50 | Integrase | HIV-1 |  |  | ELISA |  | <0.01 µM |
| COc1ccnc2[nH]cc(C(=O)C(=O)N3CCN(C(=O)c4ccccc4)C[C@H]3C)c12 | fold resistance | gp120 | HIV-1 | GP120-M426L | NL4-3 | ELISA |  | >97 |
| CNC(=O)c1cc(=O)c(O)c2n1CCN(Cc1ccc(Cl)c(Cl)c1)C2=O | IC50 | Integrase | HIV-1 |  |  | ELISA |  | 0.01–0.1 µM |
| CC[C@@H](C)[C@H](NC(=O)[C@@H]1CCCN1C(=O)[C@@H](O)[C@H](Cc1ccccc1)NC(=O)[C@H](CC(N)=O)NC(=O)c1ccccn1)C(=O)N[C@H](C(N)=O)C(C)C | inhibition | Protease | HIV-1 |  |  |  | 5 µM | 93.6% |
| CNC(=O)Cc1cn2ccn(Cc3cccc(Cl)c3)c(=O)c2c(O)c1=O | IC50 | Integrase | HIV-1 |  |  | ELISA |  | 0.01–0.1 µM |
| CC1(C)c2nc(C(=O)NCc3ccc(F)cc3)c(O)c(=O)n2CCN1Cc1ccccn1 | IC50 | Integrase | HIV-1 |  |  | ELISA |  | <10 µM |
| CC(C)(C#Cc1ccc(NC(=O)CSc2nnnn2-c2cc(C(F)(F)F)ccc2Cl)c(Cl)c1F)NC(=O)c1cc[n+]([O-])cc1 | IC50 | Reverse transcriptase | HIV-1 | RT-K103 Y181C |  | PicoGreen / fluorescence |  | <1 µM |
| CN1CCn2c(nc(C(=O)NCc3ccc(F)cc3)c(O)c2=O)C1 | IC50 | Integrase | HIV-1 |  |  | ELISA |  | <10 µM |
| CC(C)(C)c1ccc(-n2nnnc2SCC(=O)Nc2ccc(-c3ccc(OCCN4CC[C@@H](O)C4)cc3)cc2Cl)c(Cl)c1 | IC50 | Reverse transcriptase | HIV-1 | RT-K103 Y181C |  | PicoGreen / fluorescence |  | <1 µM |
| CC(C)CNC(=O)[C@@H](NC(=O)[C@H](Cc1ccccc1)NC(=O)[C@H](O)[C@H](Cc1ccccc1)NC(=O)[C@@H](NC(=O)OC(C)(C)C)C(C)C)C(C)C | inhibition | Protease | HIV-1 |  |  |  | 5 µM | 5.4% |
| Nc1nc2c(ncn2[C@H]2CC[C@@H](COP(=O)(O)OP(=O)(O)OP(=O)(O)O)O2)c(=O)[nH]1 | fold resistance | Reverse transcriptase | HIV | RT-V60T |  | nucleotide incorporation |  | 0.6 |
| O=c1ccn2ccn(Cc3ccc(F)c(Cl)c3)c(=O)c2c1O | IC50 | Integrase | HIV-1 |  |  | ELISA |  | <0.01 µM |
| CCN1c2ncc(CCOc3ccc(C(=O)O)c4c3CCN(C(=O)OC)C4)cc2C(=O)N(C)c2cccnc21 | fold resistance | Reverse transcriptase | HIV-1 | RT-V106A |  | nucleotide incorporation / radiometric |  | >10 |
| Cc1ccc(-n2nccc2SCC(=O)Nc2ccc(-c3ccc(CC(=O)O)cc3)cc2Cl)c(Cl)c1 | IC50 | Reverse transcriptase | HIV-1 |  | WT | PicoGreen / fluorescence |  | <1 µM |
| CC1(C)c2nc(C(=O)NCc3ccc(F)cc3)c(O)c(=O)n2CCN1Cc1ccn[nH]1 | IC50 | Integrase | HIV-1 |  |  | ELISA |  | <10 µM |
| Cc1ccc(-n2nnnc2SCC(=O)Nc2ccc(-c3coc(C)n3)cc2Cl)c(Cl)c1 | IC50 | Reverse transcriptase | HIV-1 |  | WT | PicoGreen / fluorescence |  | <1 µM |
| CC(C)Oc1ccc(CN2CCn3cc(-c4nccs4)c(=O)c(O)c3C2=O)cc1Cl | IC50 | Integrase | HIV-1 |  |  | ELISA |  | 0.01–0.1 µM |
| CC(C)(C#Cc1ccc(NC(=O)CSc2nnnn2-c2cc(Br)ccc2Cl)c(Cl)c1)C(=O)O | IC50 | Reverse transcriptase | HIV-1 | RT-K103 Y181C |  | PicoGreen / fluorescence |  | <1 µM |
| CC(C)[C@H](N)C(=O)N[C@H](C(=O)N[C@@H](Cc1ccccc1)[C@H](O)C(=O)N(CC(=O)N[C@H](C(=O)N[C@H](C(N)=O)C(C)C)C(C)C)Cc1ccccc1)C(C)C | inhibition | Protease | HIV-1 |  |  |  | 1000 µM | 69.6% |
| CN1CCn2c(nc(C(=O)NCc3ccc(F)c(Br)c3)c(O)c2=O)C1(C)C | IC50 | Integrase | HIV-1 |  |  | ELISA |  | <10 µM |
| CCOC(=O)C(=O)CC(=O)/C=C/c1cccn1Cc1ccc(C)cc1C | inhibition | RNase H | HIV-1 | Q475A |  | substrate cleavage / fluorescence | 100 µM | 24% |
| CC1NCCn2c1nc(C(=O)NCc1ccc(F)cc1)c(O)c2=O | IC50 | Integrase | HIV-1 |  |  | ELISA |  | <10 µM |
| O=c1c(-c2ncccn2)cn2ccn(Cc3cccc(Cl)c3)c(=O)c2c1O | IC50 | Integrase | HIV-1 |  |  | ELISA |  | 0.01–0.1 µM |
| CC(C)(C)c1ccc(-n2nnnc2SCC(=O)Nc2ccc(C(=O)Nc3ccc(CC(=O)O)cc3)cc2Cl)c(Cl)c1 | IC50 | Reverse transcriptase | HIV-1 | RT-K103 Y181C |  | PicoGreen / fluorescence |  | <1 µM |
| O=C(NC(c1ccccc1)c1ccccc1)c1cn2ccn(Cc3cccc(Cl)c3)c(=O)c2c(O)c1=O | IC50 | Integrase | HIV-1 |  |  | ELISA |  | 0.01–0.1 µM |
| CCN1c2ncc(CCOc3ccc4cc(CC(=O)O)ccc4c3C)cc2C(=O)N(C)c2cccnc21 | fold resistance | Reverse transcriptase | HIV-1 | RT-K103N Y181C |  | nucleotide incorporation / radiometric |  | 1–10 |

For reference, 5 entries again:

CC(C)[C@H](N)C(=O)N[C@H](C(=O)N[C@@H](Cc1ccccc1)[C@H](O)C(=O)N(CC(=O)N[C@H](C(=O)N[C@H](C(N)=O)C(C)C)C(C)C)Cc1ccccc1)C(C)C ; read-out: inhibition ; target: Protease ; agent: HIV-1 ; dose: 1000 µM ; result: 69.6%
CC[C@@H](C)[C@H](NC(=O)[C@@H]1CCCN1C(=O)[C@@H](O)[C@H](Cc1ccccc1)NC(=O)[C@H](CC(N)=O)NC(=O)c1ccccn1)C(=O)N[C@H](C(N)=O)C(C)C ; read-out: inhibition ; target: Protease ; agent: HIV-1 ; dose: 5 µM ; result: 93.6%
CC(C)(C#Cc1ccc(NC(=O)CSc2nnnn2-c2cc(Br)ccc2Cl)c(Cl)c1)C(=O)O ; read-out: IC50 ; target: Reverse transcriptase ; agent: HIV-1 ; mutations: RT-K103 Y181C ; read by: PicoGreen / fluorescence ; result: <1 µM
CC1(C)c2nc(C(=O)NCc3ccc(F)cc3)c(O)c(=O)n2CCN1Cc1ccccn1 ; read-out: IC50 ; target: Integrase ; agent: HIV-1 ; read by: ELISA ; result: <10 µM
Nc1ccn([C@@H]2CS[C@H](COP(=O)(O)OP(=O)(O)OP(=O)(O)O)O2)c(=O)n1 ; read-out: fold resistance ; target: Reverse transcriptase ; agent: HIV ; mutations: RT-D67N K70R T215Y K219Q ; read by: radiometric ; result: 1.5